{
  "sequences": {"note": "The chains behind the UniProt entries cited, without tags or fusion partners. Residues count along the entry.", "UniProt P27958, 1027-1657 limits assumed": "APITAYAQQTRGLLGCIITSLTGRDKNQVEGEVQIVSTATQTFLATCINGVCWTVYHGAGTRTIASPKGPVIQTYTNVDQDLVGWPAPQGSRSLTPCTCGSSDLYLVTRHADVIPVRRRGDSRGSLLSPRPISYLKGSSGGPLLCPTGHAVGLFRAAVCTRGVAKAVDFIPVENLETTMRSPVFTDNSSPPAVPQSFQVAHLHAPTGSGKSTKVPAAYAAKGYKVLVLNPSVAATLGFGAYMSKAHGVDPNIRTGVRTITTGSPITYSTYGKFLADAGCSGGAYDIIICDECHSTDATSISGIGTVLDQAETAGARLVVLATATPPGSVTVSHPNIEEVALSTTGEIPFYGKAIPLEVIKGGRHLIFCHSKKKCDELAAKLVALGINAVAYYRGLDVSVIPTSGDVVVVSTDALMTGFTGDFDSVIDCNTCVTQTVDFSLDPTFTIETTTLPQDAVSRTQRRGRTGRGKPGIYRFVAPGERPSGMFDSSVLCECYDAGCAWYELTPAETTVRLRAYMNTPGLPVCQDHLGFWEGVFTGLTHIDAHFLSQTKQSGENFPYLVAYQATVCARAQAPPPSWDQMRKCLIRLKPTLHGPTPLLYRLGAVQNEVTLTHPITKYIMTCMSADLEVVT"},
  "source": "patent US20120101032A1",
  "about": "“NOVEL MACROCYCLIC INHIBITORS OF HEPATITIS C VIRUS REPLICATION” (priority 2010, published 2012)",
  "key": {"NS3/NS4 complexes": {"biological_target": "NS3/NS4 complexes (Hepatitis C virus genotype 1a, UniProt P27958)", "details": "NS3-NS4 activity; 23° C., pH 7.5, 25 μM NS4A peptide; tested form: HCl"}, "hepatitis C replicon": {"tested_on": "hepatitis C replicon", "experiment": "hepatitis C replicon EC50 assay", "format": "cell-based, hepatitis C virus", "details": "tested form: HCl"}},
  "data": [
    {"smiles": "CC(C)n1c(O[C@@H]2C[C@H]3C(=O)N[C@]4(C(=O)NS(=O)(=O)C5(C)CC5)C[C@H]4/C=C\\CCCCC[C@H](N)C(=O)N3C2)nc2c(-c3nc(C4CCC4)cs3)cccc21", "values": [
      {"measurement": "IC50", "setting": "NS3/NS4 complexes", "result": "< 0.01", "unit": "µM"},
      {"measurement": "EC50", "setting": "hepatitis C replicon", "result": "> 0.1", "unit": "µM"}
    ]}
  ]
}
